Compound potency records, mixed from different reports. Data source: NIAID ChemDB in PubChem.

Shared fields: tests in culture; organism: HIV-1; cell line: MT-4; endpoint: EC50

Conditions beyond the fields shown may differ between rows.

SMILES	strain	changes	read by	value
O=C(CN1CCN(Cc2ccccc2)CC1)OC[C@@H]1CC[C@H](n2cnc3c(=O)[nH]cnc32)O1	IIIB	-	cytopathic effect / MTT	2.2 µM
N#Cc1cccc(C2SCc3nc4ccccc4n32)c1	-	-	cytopathic effect	3.467 µM
COC(=O)C(=O)N1CCC[C@H]1C(=O)N[C@@H](Cc1ccccc1)C(=O)OCc1ccccc1	IIIB	-	antigen	6.8 µM
Cc1cn([C@H]2C[C@H](N=[N+]=[N-])[C@@H](CO)O2)c(=O)[nH]c1=O	IIIB	F227L and V106A	MTT	0.007 µM
CCCCCCCSc1nsc(NC(=O)Nc2ccccc2)n1	IIIB	-	cytopathic effect	8.9 µM
COC1=C2[C@@H]3Cc4ccc(OC)c(O)c4[C@]2(CCN3)CC(OC(C)=O)C1OC(C)=O	IIIB	-	cytopathic effect / visual reading	<7.8 µg/mL
Nc1ncnc2c1ncn2[C@@H]1O[C@H](CO)[C@H]1CO	IIIB	-	-	1.7 µg/mL
O=c1[nH]c2c(c(=O)[nH]1)C(c1ccccc1)c1c([nH]c(=O)[nH]c1=O)O2	IIIB	-	cytopathic effect	170 µM
O=C(N[C@H]1c2ccccc2OC[C@H]1O)[C@H](Cc1cccnc1)C[C@H](O)CN1CCN(Cc2ccn(-c3ccccc3C(F)(F)F)c2)C[C@H]1C(=O)NCC(F)(F)F	K-60C Clinical isolate	PR-L10I M46I I54V Q58E L63P I64V V77I V82F I84V L90M I93L	p24	<0.5 µM
CO[C@H]1O[C@@H](n2ccc(=O)[nH]c2=O)C[C@@H]1N=[N+]=[N-]	IIIB	-	antigen	>160 µM
Cc1cn([C@H]2C[C@H](n3cc([N+](=O)[O-])nc3C)[C@@H](C(O)CO)O2)c(=O)[nH]c1=O	-	-	p24	>100 µM
CCc1c(CC2CCCCC2)nc(SCC(=O)c2ccccc2)[nH]c1=O	IIIB	-	MTT	0.02 µM
COC(=O)CCCCCNC(=O)/C=C/c1cn([C@H]2C=C[C@@H](CO)O2)c(=O)[nH]c1=O	IIIB	-	RT activity	>100 µM
Nc1nc(Br)nc2c1ncn2[C@@H]1O[C@H](CO)[C@H]1O	IIIB	-	-	7.2 µg/mL
O=c1[nH]cnc2c1ncn2[C@H]1CC[C@@H](CO)O1	HXB2	-	cytopathic effect / MTT	2.24 µM
O=C(N[C@H]1c2ccccc2OC[C@H]1O)[C@H](Cc1cccnc1)C[C@H](O)CN1CCN(Cc2ccn(-c3ccccc3)c2)C[C@H]1C(=O)NCC(F)(F)F	K-60C Clinical isolate	PR-L10I M46I I54V Q58E L63P I64V V77I V82F I84V L90M I93L	p24	<0.031 µM
Nc1nc(=O)n([C@H]2CS[C@@H](CO)O2)cc1F	RF	-	cytopathic effect / MTT	2.1 µM
CC(C)c1c(Sc2cccc3ccccc23)n(COCC2CC2)c(=O)[nH]c1=O	IIIB	-	cytopathic effect / MTT	0.38 µM
Cc1cn([C@H]2C[C@@H](n3cc([N+](=O)[O-])nc3C)[C@H](O)[C@@H](CO)O2)c(=O)[nH]c1=O	-	-	p24	>100 µM
O=C1CCC(c2ccccc2)C(=O)N1CCCN1CCN(c2ccccc2O)CC1	-	-	MTT	>100 µM
C#Cc1ccc(Nc2nccc(Oc3c(C)cc(-c4cn(Cc5ccc(O)cc5)nn4)cc3C)n2)cc1	IIIB	E138K	MTT	0.091 µM
CCc1c(C(C)CC2CCCCC2)nc(SCC(=O)c2ccc(OC)cc2)[nH]c1=O	IIIB	-	MTT	0.07 µM
COc1ccc(S(=O)(=O)NC(N)=NCCC[C@H](NC(=O)N[C@@H](Cc2ccccc2)C(=O)OC(C)(C)C)C(=O)N[C@H](C(=O)N[C@H](COCc2ccccc2)Cc2ccccc2)C(C)C)cc1	-	-	-	>100 µM
CC1Cn2c(=S)[nH]c3cc(Cl)cc(c32)CN1CC1CCC1	-	-	cytopathic effect	0.013 µM
C#Cc1ccc(Nc2nccc(Oc3c(C)cc(-c4cn(-c5ccc(C(=O)OC)cc5)nn4)cc3C)n2)cc1	IIIB	K103N	MTT	0.022 µM
C=C(C)[C@@H]1CC[C@]2(C(=O)OC)CC[C@]3(C)C(CC[C@@H]4[C@@]5(C)C[C@@H](F)[C@H](OC(=O)CC(C)(C)C(=O)O)C(C)(C)[C@@H]5CC[C@]43C)[C@@H]12	NL4-3	-	p24 / ELISA	>16 µM
CC(CC1CCCCC1)c1cc(=O)[nH]c(SCC(=O)c2ccc(F)cc2)n1	IIIB	-	MTT	10.9 µM
Cc1cccc(C)c1CNC(=O)[C@H]1N(C(=O)[C@@H](O)C[C@@H](Cc2ccccc2)C(=O)N[C@H]2c3ccccc3C[C@H]2O)CSC1(C)C	-	PR-V18C	p24	<0.031 µM
CC(=O)c1ccc(C)cc1NC(C(N)=O)c1c(Cl)cccc1Cl	IIIB	-	MTT	0.006 µM
COc1nc(=O)[nH]c2c1C(c1ccc(Cl)cc1)c1c(OC)nc(=O)[nH]c1O2	IIIB	-	cytopathic effect	>347 µM
CC(c1cc(=O)[nH]c(SCC(=O)c2ccc(F)cc2)n1)C1CCCCC1	IIIB	-	MTT	7.55 µM
O=C1CCC(c2ccccc2)C(=O)N1CCCCN1CCN(c2ccc(F)cc2)CC1	-	-	MTT	>54 µM
CCc1c(C(C)C2CCCCC2)nc(SCC(=O)c2ccc(OC)cc2)[nH]c1=O	IIIB	-	MTT	0.03 µM
CCOCn1c(Sc2ccc3ccccc3c2)c(C(C)C)c(=O)[nH]c1=O	IIIB	-	cytopathic effect / MTT	2.65 µM
C=C(C)CN1Cc2cccc3[nH]c(=S)n(c23)CC1C	-	-	cytopathic effect	0.014 µM
Cc1cn([C@@H]2O[C@H](CO[Si](C)(C)C(C)(C)C)C3(OS(=O)(=O)C=C3N)[C@H]2O[Si](C)(C)C(C)(C)C)c(=O)n(C)c1=O	HE	-	cytopathic effect / trypan blue	0.051 µM
CC(C)=CCc1c(O)cc(O)c2c1O[C@H](c1ccc(O)cc1)CC2=O	IIIB	-	cytopathic effect / MTT	>200 µg/mL
CC(C)=CCN1Cc2cc(Cl)cc3[nH]c(=S)n(c23)CC1C	-	-	cytopathic effect	0.003 µM
CC(=O)C1(c2ccccc2)C(=O)C=C2N(C1=O)c1ccc(Cl)cc1C2(C)C	RF	-	cytopathic effect / MTT	6.5 µM
Cc1cn([C@H]2C[C@H](N=[N+]=[N-])[C@@H](CO)O2)c(=O)[nH]c1=O	-	L100I mutant	MTT	0.005 µM
Cc1cn([C@@H]2O[C@H](CO[Si](C)(C)C(C)(C)C)C3(OS(=O)(=O)C=C3N)[C@H]2O)c(=O)[nH]c1=O	IIIB	-	cytopathic effect / trypan blue	>40 µM
O=c1[nH]cnc2c1ncn2C1CC[C@@H](CO)O1	IIIB	-	MTT	5.37 µM
O=C(CN1CCN(c2ccccc2)CC1)OC[C@@H]1CC[C@H](n2cnc3c(=O)[nH]cnc32)O1	IIIB	-	cytopathic effect / MTT	1.28 µM
Cc1cn([C@@H]2O[C@H](CO)C3(OS(=O)(=O)C=C3N)[C@H]2O)c(=O)[nH]c1=O	HE	-	cytopathic effect / trypan blue	>300 µM
CO[P@](=O)(c1cc(C)cc(/C=C/C#N)c1)c1c(C(N)=O)[nH]c2ccc(Cl)cc12	NL4-3	WT	ELISA	0.0017 µM
CCCCC1C(=O)C=C2N(C1=O)c1ccccc1C2(C)C	RF	-	cytopathic effect / MTT	>100 µM
Nc1ccn([C@H]2CC[C@@H](CO)O2)c(=O)n1	1241 (AZT-resistant RT-K70R)	RT-K70R	syncytia	0.038 µM
O=C1CCC(c2ccccc2)C(=O)N1CCCCN1CCN(Cc2ccccc2)CC1	-	-	MTT	>100 µM
Cc1cccc(-n2ccc(CN3CCN(C[C@@H](O)C[C@@H](Cc4cccnc4)C(=O)N[C@H]4c5ccccc5OC[C@H]4O)[C@H](C(=O)NCC(F)(F)F)C3)c2)c1	K-60C Clinical isolate	PR-L10I M46I I54V Q58E L63P I64V V77I V82F I84V L90M I93L	p24	<0.031 µM
Cc1cn([C@H]2C[C@H](N=[N+]=[N-])[C@@H](CO)O2)c(=O)[nH]c1=O	RF	-	cytopathic effect / MTT	0.056 µM
CC(C)=CCC(Cc1c(O)cc(O)c2c1O[C@H](c1ccc(O)cc1O)CC2=O)C(=O)O	IIIB	-	cytopathic effect / MTT	4 µg/mL
CCc1c(Sc2ccc3ccccc3c2[N+](=O)[O-])n(COC)c(=O)[nH]c1=O	IIIB	-	cytopathic effect / MTT	0.47 µM
COC(=O)[C@H](C)NP(=O)(OC[C@H]1O[C@@H](n2cc(C)c(=O)[nH]c2=O)CC1N=[N+]=[N-])Oc1ccccc1	IIIB	-	MTT	0.065 µM
CC(C)=CCN1Cc2cccc3[nH]c(=O)n(c23)CC1C	-	-	cytopathic effect	3.981 µM
Cc1ccnc2c1NC(=O)c1cccnc1N2C1CC1	IIIB	F227L and V106A	MTT	>15.02 µM
Cc1ccnc2c1NC(=O)c1cccnc1N2C1CC1	Recombinant clinical isolates	-	cytopathic effect / MTT	≤0.01 µM
O=c1[nH]cnc2c1ncn2[C@H]1CC[C@@H](CO)O1	IIIB	-	cytopathic effect / MTT	5.37 µM
Nc1ccn([C@H]2CC[C@@H](COC(=O)C(=O)N3CCCC3C(=O)N[C@H](Cc3ccccc3)C(=O)OCc3ccccc3)O2)c(=O)n1	IIIB	-	antigen	1.3 µM
CC1(C)C2=CC(=O)C(O)(c3ccccc3)C(=O)N2c2ccc(Cl)cc21	RF	-	cytopathic effect / MTT	0.69 µM
Cc1cn([C@H]2C[C@H](N=[N+]=[N-])[C@@H](CO)O2)c(=O)[nH]c1=O	NL4-3	-	cytopathic effect	0.005 µM
CC(C)=CCC(Cc1c(O)cc(O)c2c1O[C@H](c1cc3c(cc1O)O[C@@H](c1ccc(O)cc1)[C@@H]3c1cc(O)cc(O)c1)CC2=O)C(=O)O	IIIB	-	cytopathic effect / MTT	>200 µg/mL
Nc1ccn([C@H]2CC[C@@H](CO)O2)c(=O)n1	-	-	MTT	1.2 µg/mL
c1ccc(CNCc2ccc(CN(Cc3nc4ccccc4[nH]3)C3CCCc4cccnc43)cc2)nc1	NL4-3	-	p24 / ELISA / antigen	0.051 µM
C=CCN1Cc2cccc3[nH]c(=S)n(c23)CC1C	-	-	cytopathic effect	67.6 µM
CC(C)c1c(Sc2cccc3ccccc23)n(COCCO)c(=O)[nH]c1=O	IIIB	-	cytopathic effect / MTT	0.23 µM
Nc1ccn([C@H]2CC[C@@H](CO)O2)c(=O)n1	IIIB	-	cytopathic effect / MTT	0.26 µg/mL
N#Cc1ccccc1-n1ccc(CN2CCN(C[C@@H](O)C[C@@H](Cc3cccnc3)C(=O)N[C@H]3c4ccccc4OC[C@H]3O)[C@H](C(=O)NCC(F)(F)F)C2)c1	Q-60C Clinical isolate	PR-L10I N37S R41K M46I I54V I62V L63P A71V V77I V82A L90M I93L	p24	<0.062 µM
O=C(CN1CCN(c2ccc([N+](=O)[O-])cc2)CC1)OC[C@@H]1CC[C@H](n2cnc3c(=O)[nH]cnc32)O1	IIIB	-	cytopathic effect / MTT	4.78 µM
NCCCCCCNC(=O)/C=C/c1cn([C@H]2C=C[C@@H](CO)O2)c(=O)[nH]c1=O	IIIB	-	RT activity	>100 µM
O=C(N[C@H]1c2ccccc2OC[C@H]1O)[C@H](Cc1cccnc1)C[C@H](O)CN1CCN(Cc2ccn(-c3ccc(F)cc3)c2)C[C@H]1C(=O)NCC(F)(F)F	K-60C Clinical isolate	PR-L10I M46I I54V Q58E L63P I64V V77I V82F I84V L90M I93L	p24	<0.015 µM
C#Cc1ccc(Nc2nccc(Oc3c(C)cc(-c4cn(CC(=O)Nc5ccc(S(C)(=O)=O)cc5)nn4)cc3C)n2)cc1	IIIB	Y181C	MTT	>6.36 µM
Nc1ncnc2c1ncn2[C@H]1CC[C@@H](COC(=O)C(=O)N2CCCC2C(=O)N[C@H](Cc2ccccc2)C(=O)OCc2ccccc2)O1	IIIB	-	antigen	12 µM
O=c1[nH]cnc2c1ncn2[C@H]1CC[C@@H](CO)O1	IIIB	-	-	0.21 µg/mL
Cc1cn([C@@H]2CC(n3nnc4ccccc43)C(C(O)CO)O2)c(=O)[nH]c1=O	-	-	p24	>100 µM
CC(C)[C@H](NC(=O)[C@H](CCCN=C(N)N)NC(=O)N[C@@H](Cc1ccccc1)C(=O)O)C(=O)NC(C=O)Cc1ccccc1	-	-	-	>41 µM
C#Cc1ccc(Nc2nccc(Oc3c(C)cc(-c4cn(CCC(=O)OC)nn4)cc3C)n2)cc1	IIIB	Y188L	MTT	>23.76 µM
COc1ccccc1N1CCN(CCCCN2C(=O)CCC(c3ccccc3)C2=O)CC1	-	-	MTT	>100 µM

The first 5 rows once more:

SMILES	strain	changes	read by	value
O=C(CN1CCN(Cc2ccccc2)CC1)OC[C@@H]1CC[C@H](n2cnc3c(=O)[nH]cnc32)O1	IIIB	-	cytopathic effect / MTT	2.2 µM
N#Cc1cccc(C2SCc3nc4ccccc4n32)c1	-	-	cytopathic effect	3.467 µM
COC(=O)C(=O)N1CCC[C@H]1C(=O)N[C@@H](Cc1ccccc1)C(=O)OCc1ccccc1	IIIB	-	antigen	6.8 µM
Cc1cn([C@H]2C[C@H](N=[N+]=[N-])[C@@H](CO)O2)c(=O)[nH]c1=O	IIIB	F227L and V106A	MTT	0.007 µM
CCCCCCCSc1nsc(NC(=O)Nc2ccccc2)n1	IIIB	-	cytopathic effect	8.9 µM

ECn is the concentration giving n% inhibition of infection, replication or growth. Blank or dashed fields: not listed here.